Measured values taken from paper PMC8035206.
Construct, isoform or probe ends are uncertain for at least one entry. At least one verdict was read from the data and is not stated in words by the source.

Biological target: N-mEGFP full length (nucleocapsid) (SARS-CoV-2) (UniProt P0DTC9)
Experiment: EMSA
Conditions: 1 uM protein, 200 nM RNA; recombinant protein; residues 1-419

AUUAAAGGUUUAUACCUUCCCAGGUAACAAACCAACCAACUUUCGAUCUCUUGUA [55-nt vRNA (5' UTR segment)]
binding result: binds
